# Test results: publication PMC10719079, “The structural basis for deubiquitination by the fingerless USP-type effector TssM” (2023)
# How the values were obtained:
# [1] = target: NEDD8-PA
# [2] = target: ubiquitin-PA (ubiquitin^1–75 propargylamide activity-based probe) (UniProt P0CG48)
substance,measurement,setting,value
TssM^193–490 from Burkholderia pseudomallei (domain or fragment),"initial velocity of cleavage of NEDD8-AMC (5 nM TssM, 5 μM NEDD8-AMC, 30°C)",[1],3.6 RFU/s
same,"initial velocity of cleavage of ubiquitin-AMC (5 nM TssM, 5 μM Ub-AMC, 30°C)",[2],418 RFU/s
